A mixed list of measured activities; the numbers were collected in NIAID ChemDB.

Common to all: target-level tests; species: HIV-1; protein: Reverse transcriptase

Conditions beyond the fields shown may differ between rows. Blank or dashed fields: not listed here. Fold resistance: result on the changed form divided by that on wild type. ICn: concentration for n% inhibition.

compound | method | strain or isolate | measure | changes | result
CCN1c2ncc(CCOc3ccc(-c4cc(C(=O)O)ccc4OC)cc3C)cc2C(=O)N(C)c2cccnc21 | nucleotide incorporation / radiometric | IIIB | IC50 | RT-K103N Y181C | >0.1 µM
COC(=O)c1ccc2c(c1)CN(c1nn3c(C)nnc3c3ccccc13)CC2 | RT activity / fluorescence | IIIB | IC50 | - | 2.01 µM
COC(=O)NCCCCNc1nc(Cc2ccccc2)c(C)c(=O)[nH]1 | - | - | Ki | RT-L100I | 70 µM
O=[N+]([O-])c1ccc2c(c1)CN(c1nn3c(C(F)F)nnc3c3ccccc13)CC2 | RT activity / fluorescence | 98US_MSC5016 | IC90 | - | 20.3 µM
CC(C)(O)C#Cc1ccc(NC(=O)CSc2nnnn2-c2ccc(C(C)(C)C)cc2Cl)c(Cl)c1 | PicoGreen / fluorescence | WT | IC50 | - | <1 µM
CCN1c2ncc(CCOc3ccc(-c4cc[n+]([O-])cc4)cc3)cc2C(=O)N(C)c2cccnc21 | nucleotide incorporation / radiometric | IIIB | IC50 | RT-K103N Y181C | <0.05 µM
Cc1c(Cc2ccccc2)nc(SCCCCO)[nH]c1=O | - | - | fold resistance | RT-V179D | 1.64
CC(=O)Nc1ccc2c(c1)CN(c1nn3c(C4CC4)nnc3c3ccccc13)CC2 | RT activity / fluorescence | 98US_MSC5016 | IC50 | - | 0.17 µM
CC(C)(C)c1ccc(-n2nnnc2SCC(=O)Nc2ccc(C(=O)NC3CCN(Cc4ccccc4)CC3)cc2Cl)c(Cl)c1 | PicoGreen / fluorescence | - | IC50 | RT-K103 Y181C | <1 µM
Cc1nnc2c3ccccc3c(N3CCc4ccc(C#N)cc4C3)nn12 | RT activity / fluorescence | IIIB | IC50 | - | 4.39 µM
CCc1cc(CCc2nc3ccccc3o2)c(=O)[nH]c1C | nucleotide incorporation | - | fold resistance | RT-K103N Y181C | 571
N#Cc1ccc2c(c1)CN(c1nn3c(C4CC4)nnc3c3ccccc13)CC2 | RT activity / fluorescence | KER2008 | IC50 | - | 1.71 µM
CCN1c2ncc(CCOc3ccc(C(=O)Nc4ccc(CC(=O)O)cc4)cc3C)cc2C(=O)N(C)c2cccnc21 | nucleotide incorporation / radiometric | IIIB | IC50 | RT-K103N Y181C | <0.05 µM
C=CC#Cc1ccc(NC(=O)CSc2nnnn2-c2ccc(C3CC3)cc2Cl)c(Cl)c1 | PicoGreen / fluorescence | - | IC50 | RT-K103 Y181C | <1 µM
COc1ccc2c(c1)CN(c1nn3c(-c4cccs4)nnc3c3ccccc13)CC2 | RT activity / fluorescence | KER2008 | IC50 | - | 30.4 µM
CC(CC(=O)O)NC(=O)COc1ccc(NC(=O)CSc2nnnn2-c2ccc(C(C)(C)C)cc2Cl)c(Cl)c1 | PicoGreen / fluorescence | WT | IC50 | - | <1 µM
COc1ccc2c(c1)CCN(c1nn3c(C4CC4)nnc3c3ccccc13)C2 | RT activity / fluorescence | IIIB | IC90 | - | 3.83 µM
CCN1c2ncc(CCOc3ccc(-c4ccc(CC(=O)O)cc4Cl)cc3C)cc2C(=O)N(C)c2cccnc21 | nucleotide incorporation / radiometric | IIIB | IC50 | RT-K103N Y181C | <0.05 µM
O=C(COc1ccc(NC(=O)CSc2nnnn2-c2ccc(C3CC3)cc2Cl)c(Cl)c1)NCc1cccnc1 | PicoGreen / fluorescence | - | IC50 | RT-K103 Y181C | <1 µM
FC(F)(F)Cc1nnc2c3ccccc3c(N3CCc4ccccc4C3)nn12 | RT activity / fluorescence | 98US_MSC5016 | IC90 | - | 2.75 µM
CC(C)(C)c1cc(Cl)c(-n2nnnc2SCC(=O)Nc2ccc(-c3ccc(CC(=O)O)cc3)cc2Cl)c(Cl)c1 | PicoGreen / fluorescence | WT | IC50 | - | <1 µM
CCN1c2ncc(CCOc3ccc(-c4ccc(C(=O)O)cc4)c(Cl)c3)cc2C(=O)N(C)c2cccnc21 | nucleotide incorporation / radiometric | IIIB | IC50 | - | <0.05 µM
Cc1ccc(-n2nnnc2SCC(=O)Nc2ccc(C#CC(C)(C)O)cc2Cl)c(Cl)c1C(F)(F)F | PicoGreen / fluorescence | WT | IC50 | - | <1 µM
CCN1c2ncc(CCOc3ccc(NC(=O)CC(C)(C)C(=O)O)cc3C)cc2C(=O)N(C)c2cccnc21 | nucleotide incorporation / radiometric | IIIB | IC50 | - | <0.05 µM
CC(C(=O)O)C(=O)NC(C)(C)C#Cc1ccc(NC(=O)CSc2nnnn2-c2ccc(C3CC3)cc2Cl)c(Cl)c1 | PicoGreen / fluorescence | WT | IC50 | - | <1 µM
CCN1c2ncc(CCOc3ccc(-c4csc(N)n4)cc3C)cc2C(=O)N(C)c2cccnc21 | nucleotide incorporation / radiometric | IIIB | IC50 | - | <0.05 µM
Cc1cc(C#CC(C)(C)C(=O)O)ccc1NC(=O)CSc1nnnn1-c1ccc(C(C)(C)C)cc1Cl | PicoGreen / fluorescence | - | IC50 | RT-K103 Y181C | <1 µM
O=c1cc(Cc2ccccc2)nc(SCCCCO)[nH]1 | - | - | fold resistance | RT-L100I | 2

A second listing of 3 rows from above:

compound	method	strain or isolate	measure	changes	result
CC(C)(O)C#Cc1ccc(NC(=O)CSc2nnnn2-c2ccc(C(C)(C)C)cc2Cl)c(Cl)c1	PicoGreen / fluorescence	WT	IC50	-	<1 µM
C=CC#Cc1ccc(NC(=O)CSc2nnnn2-c2ccc(C3CC3)cc2Cl)c(Cl)c1	PicoGreen / fluorescence	-	IC50	RT-K103 Y181C	<1 µM
CCN1c2ncc(CCOc3ccc(-c4cc[n+]([O-])cc4)cc3)cc2C(=O)N(C)c2cccnc21	nucleotide incorporation / radiometric	IIIB	IC50	RT-K103N Y181C	<0.05 µM